Legend:
[1] = general procedure: Fmoc solid-phase peptide synthesis; Rink amide resin (Compound 8); Wang resin (Compound 9); 2-chlorotrityl chloride resin for side-chain moieties; DIPC/HOBt; conditions: whole synthesis
[2] = general procedure: Fmoc solid-phase peptide synthesis; Fmoc-Rink amide resin; DIPC/HOBt; conditions: whole synthesis, HPLC Method D

Tyr Aib Glu Gly Thr Phe Thr Ser Asp Tyr Ser Ile L-homoalanine Leu Asp Lys Ile Ala Gln Lys Ala Phe Val Gln Trp Leu Ile Ala Gly Gly Pro Ser Ser Gly Ala Pro Pro Pro Ser-NH2
final HPLC purity ([1]; HPLC Method D): 96.79%

Tyr Aib Glu Gly Thr Phe Thr Ser Asp Tyr Ser Ile L-norleucine Leu Asp Lys Ile Ala Gln Lys Ala Phe Val Gln Trp Leu Ile Ala Gly Gly Pro Ser Ser Gly Ala Pro Pro Pro Ser-NH2
final HPLC purity ([1]; HPLC Method D): 95.43%

Tyr Aib Glu Gly Thr Phe Thr Ser Asp Tyr Ser Ile L-norvaline Leu Glu Lys Ile Ala Ala Gln Glu Phe Val Asn Trp Leu Leu Ala Gly Gly Pro Ser Ser Gly Ala Pro Pro Pro Ser Lys-NH2
final HPLC purity [2]: 94.55%

Tyr L-norvaline Glu Gly Thr Phe Thr Ser Asp Tyr Ser Ile Aib Leu Asp Lys Ile Ala Gln Lys Ala Phe Val Gln Trp Leu Ile Ala Gly Gly Pro Ser Ser Gly Ala Pro Pro Pro Ser-NH2
final HPLC purity ([1]; HPLC Method B): 96.09%

Tyr L-norvaline Glu Gly Thr Phe Thr Ser Asp Tyr Ser Ile L-norvaline Leu Asp Lys Ile Ala Gln Lys Ala Phe Val Gln Trp Leu Ile Ala Gly Gly Pro Ser Ser Gly Ala Pro Pro Pro Ser-NH2
final HPLC purity ([1]; HPLC Method A): 94.21%

— patent US12622948B2 (SUN PHARMACEUTICAL INDUSTRIES LIMITED, priority 2020, dated 2026)
